# In patent US5364879A, “Medical uses of trioxolane and diperoxide compounds” (Cliveden Ltd., priority 1994, dated 1994):
# System: E. coli
# Assay: In vitro anti-microbial assay (inoculated ointment, 28 days)
# Settings: ointment containing 1.0%; at 7 days and all subsequent samples to 28 days, 20°-25° C.
smiles,measurement,value
CC1(C)OOC(CCC(C)(O)C2OCOO2)O1 (stereo not shown) [linalool trioxolane],viable CFUs present,less than 10 CFUs
